{"source": "PubChem BioAssay AID1259414, Drosophila RNAi Screening Center – 2018", "test": "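Host factors increasing or decreasing Wolbachia levels in cultured fly cells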 (primary screen)", "cells": "Drosophila JW18 cells infected with Wolbachia", "reagent": "long dsRNA against Drosophila genes, 0.25 µg dsRNA per well of a 384-well plate", "timing": "5 days", "treatment": "cells persistently infected with Wolbachia before knock-down; no added drug", "detection": "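Imaged fluorescence in situ signal for Wolbachia 23S rRNA per DAPI-counted host cell, given as a robust z-score within each plate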", "direction": "Wolbachia per cell robust z: higher = more Wolbachia per host cell than the plate typical", "hit rule": "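Hit when robust z is 1.5 or more, or -1.5 or less, in at least two of three replicates; excludes dsRNAs with several or no targets, genes not expressed in JW18 and well A1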", "note": "The screen tested about 24,000 reagents; shown is an unselected part of those with a known target gene and a result. Over the whole deposit, about 1,210 (5%) were called active. 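Inactive calls also include excluded dsRNAs with several or no targets, genes unexpressed in JW18, and well A1, regardless of score.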 Names joined by + are all predicted targets of the reagent."}
{"Target gene": "Usf", "DRSC id": "DRSC18129", "Wolbachia per cell robust z, rep 1": -1.88, "Wolbachia per cell robust z, rep 2": -1.04, "Wolbachia per cell robust z, rep 3": -0.454, "Call": "inactive"}
{"Target gene": "Usf", "DRSC id": "DRSC23749", "Wolbachia per cell robust z, rep 1": -0.567, "Wolbachia per cell robust z, rep 2": -0.844, "Wolbachia per cell robust z, rep 3": -1.08, "Call": "inactive"}
{"Target gene": "Rexo5 (RNA exonuclease 5)", "DRSC id": "DRSC10981", "Wolbachia per cell robust z, rep 1": -2.08, "Wolbachia per cell robust z, rep 2": 0.787, "Wolbachia per cell robust z, rep 3": -0.733, "Call": "inactive"}
{"Target gene": "CG18539", "DRSC id": "DRSC06766", "Wolbachia per cell robust z, rep 1": -0.57, "Wolbachia per cell robust z, rep 2": 0.0973, "Wolbachia per cell robust z, rep 3": -1.96, "Call": "inactive"}
{"Target gene": "CG3335", "DRSC id": "DRSC10358", "Wolbachia per cell robust z, rep 1": -0.162, "Wolbachia per cell robust z, rep 2": 0.817, "Wolbachia per cell robust z, rep 3": 0.844, "Call": "inactive"}
{"Target gene": "CG3335", "DRSC id": "DRSC29982", "Wolbachia per cell robust z, rep 1": 1.13, "Wolbachia per cell robust z, rep 2": -0.193, "Wolbachia per cell robust z, rep 3": 0.0159, "Call": "inactive"}
{"Target gene": "Mcm10 (Minichromosome maintenance 10)", "DRSC id": "DRSC03162", "Wolbachia per cell robust z, rep 1": 0.622, "Wolbachia per cell robust z, rep 2": 0.963, "Wolbachia per cell robust z, rep 3": 0.75, "Call": "inactive"}
{"Target gene": "Mcm10 (Minichromosome maintenance 10)", "DRSC id": "DRSC27996", "Wolbachia per cell robust z, rep 1": 0.575, "Wolbachia per cell robust z, rep 2": 0.725, "Wolbachia per cell robust z, rep 3": 1.02, "Call": "inactive"}

Targets listed so far whose gene name begins with M or m (2):
{"Target gene": "Mcm10 (Minichromosome maintenance 10)", "DRSC id": "DRSC03162", "Wolbachia per cell robust z, rep 1": 0.622, "Wolbachia per cell robust z, rep 2": 0.963, "Wolbachia per cell robust z, rep 3": 0.75, "Call": "inactive"}
{"Target gene": "Mcm10 (Minichromosome maintenance 10)", "DRSC id": "DRSC27996", "Wolbachia per cell robust z, rep 1": 0.575, "Wolbachia per cell robust z, rep 2": 0.725, "Wolbachia per cell robust z, rep 3": 1.02, "Call": "inactive"}

Additional reagents follow.
{"Target gene": "Atg9 (Autophagy-related 9)", "DRSC id": "DRSC06848", "Wolbachia per cell robust z, rep 1": -0.973, "Wolbachia per cell robust z, rep 2": -0.112, "Wolbachia per cell robust z, rep 3": -1.4, "Call": "inactive"}
{"Target gene": "CG2070", "DRSC id": "DRSC06814", "Wolbachia per cell robust z, rep 1": 0.172, "Wolbachia per cell robust z, rep 2": 0.743, "Wolbachia per cell robust z, rep 3": 0.836, "Call": "inactive"}
{"Target gene": "Mks1 (Meckel syndrome, type 1)", "DRSC id": "DRSC19697", "Wolbachia per cell robust z, rep 1": 0.523, "Wolbachia per cell robust z, rep 2": -2.18, "Wolbachia per cell robust z, rep 3": 0.756, "Call": "inactive"}
{"Target gene": "upd2 (unpaired 2)", "DRSC id": "DRSC19969", "Wolbachia per cell robust z, rep 1": 1.25, "Wolbachia per cell robust z, rep 2": 0.572, "Wolbachia per cell robust z, rep 3": 0.472, "Call": "inactive"}
{"Target gene": "upd2 (unpaired 2)", "DRSC id": "DRSC24190", "Wolbachia per cell robust z, rep 1": 0.309, "Wolbachia per cell robust z, rep 2": 3.7, "Wolbachia per cell robust z, rep 3": 1.3, "Call": "inactive"}
{"Target gene": "eEF1alpha1 (eukaryotic translation elongation factor 1 alpha 1)", "DRSC id": "DRSC07421", "Wolbachia per cell robust z, rep 1": 0.537, "Wolbachia per cell robust z, rep 2": 1.25, "Wolbachia per cell robust z, rep 3": -1.94, "Call": "inactive"}
{"Target gene": "eEF1alpha1 (eukaryotic translation elongation factor 1 alpha 1)", "DRSC id": "DRSC25133", "Wolbachia per cell robust z, rep 1": -0.0547, "Wolbachia per cell robust z, rep 2": 2.13, "Wolbachia per cell robust z, rep 3": 2.6, "Call": "active"}
{"Target gene": "CngA (Cyclic nucleotide-gated ion channel subunit A)", "DRSC id": "DRSC06580", "Wolbachia per cell robust z, rep 1": -0.44, "Wolbachia per cell robust z, rep 2": -0.263, "Wolbachia per cell robust z, rep 3": 0.337, "Call": "inactive"}
{"Target gene": "CngA (Cyclic nucleotide-gated ion channel subunit A)", "DRSC id": "DRSC07362", "Wolbachia per cell robust z, rep 1": 0.133, "Wolbachia per cell robust z, rep 2": -2.18, "Wolbachia per cell robust z, rep 3": -0.541, "Call": "inactive"}
{"Target gene": "CngA (Cyclic nucleotide-gated ion channel subunit A)", "DRSC id": "DRSC23533", "Wolbachia per cell robust z, rep 1": -2.28, "Wolbachia per cell robust z, rep 2": 1.25, "Wolbachia per cell robust z, rep 3": -7.86, "Call": "inactive"}
{"Target gene": "CG11585", "DRSC id": "DRSC19410", "Wolbachia per cell robust z, rep 1": 0.101, "Wolbachia per cell robust z, rep 2": 0.375, "Wolbachia per cell robust z, rep 3": 1.03, "Call": "inactive"}
{"Target gene": "CG11585", "DRSC id": "DRSC27386", "Wolbachia per cell robust z, rep 1": -5.92, "Wolbachia per cell robust z, rep 2": -0.852, "Wolbachia per cell robust z, rep 3": -0.461, "Call": "inactive"}
{"Target gene": "Hsp70Bb + Hsp70Ba + Hsp70Bbb", "DRSC id": "DRSC28114", "Wolbachia per cell robust z, rep 1": 0.0361, "Wolbachia per cell robust z, rep 2": 0.0844, "Wolbachia per cell robust z, rep 3": 0.21, "Call": "inactive"}
{"Target gene": "CG15387", "DRSC id": "DRSC00401", "Wolbachia per cell robust z, rep 1": 0.429, "Wolbachia per cell robust z, rep 2": 0.214, "Wolbachia per cell robust z, rep 3": 0.111, "Call": "inactive"}
{"Target gene": "CG31300", "DRSC id": "DRSC14657", "Wolbachia per cell robust z, rep 1": 0.114, "Wolbachia per cell robust z, rep 2": 0.55, "Wolbachia per cell robust z, rep 3": -1.7, "Call": "inactive"}
{"Target gene": "CG31300", "DRSC id": "DRSC25696", "Wolbachia per cell robust z, rep 1": -1.36, "Wolbachia per cell robust z, rep 2": 1.36, "Wolbachia per cell robust z, rep 3": -0.0908, "Call": "inactive"}
